A mixed list of measured activities; the numbers were collected in NIAID ChemDB.

All rows: growth or infection tests; species: Mycobacterium tuberculosis

MIC50, MIC90 and the like: level of inhibition, or share of isolates inhibited.

| compound | strain | cell line | read by | endpoint | tested at | value |
|---|---|---|---|---|---|---|
| CCCCCCCC(=O)N1[C@H]2[C@@H]1CN1C3=C(C(=O)C(N)=C(C)C3=O)[C@@H](COC(N)=O)[C@@]21OC | TAC-R |  |  | MIC |  | 0.4 µg/mL |
| CC(C)CCOc1ccc(NC(=S)Nc2ccc(OCCC(C)C)cc2)cc1 |  |  |  | MIC |  | 7 µM |
| COC(=O)c1ccc(NC(=O)CCl)cc1S(=O)(=O)NC(=O)Nc1nccc(C)n1 | H37Rv |  |  | MIC |  | >80 µg/mL |
| N#Cc1cc(SCc2ccc(Cl)cc2)ccn1 | CNCTC MY331/88 |  |  | MIC |  | 30.9 µM |
| CCCC12C=C(OC)C(=O)C=C1OC(c1ccc3c(c1)OCO3)C2C | H37Rv |  | BACTEC | MIC |  | ≥12.5 µg/mL |
| NC(=S)C(=S)N1CCOCC1 |  |  |  | MIC |  | 31 µM |
| Cc1ccc([C@H]2SC(C)C(=O)N2c2nc(N3CCOCC3)n[nH]2)cc1 | H37Rv |  | resazurin | MIC |  | 1.56 µg/mL |
| CCOC(=O)c1ccc(C(=O)OC)c(S(=O)(=O)NC(=O)Nc2nccc(C)n2)c1 | H37Rv |  |  | MIC |  | >80 µg/mL |
| COc1ccc(-c2cc(=O)c3c(OC)cc(OC)c([C@H]4C(=O)c5c(OC)cc(OC)cc5O[C@@H]4c4ccc(OC)cc4)c3o2)cc1 |  |  |  | EC50 |  | <12.5 µg/mL |
| COc1cc(/C=C/C(=O)NCC(=O)NN)cc(OC)c1OC | H37Rv |  | BACTEC | MIC bound |  | >12.5 µg/mL |
| CO[C@H]1/C=C/O[C@@]2(C)Oc3c(C)c(O)c4c(O)c(c(/C=N/NCc5ccccc5)c(O)c4c3C2=O)NC(=O)/C(C)=C\C=C\[C@H](C)[C@H](O)[C@@H](C)[C@@H](O)[C@@H](C)[C@H](OC(C)=O)[C@@H]1C | H37Rv |  |  | EC50 |  | 0.5 µg/mL |
| N#Cc1cc(SCc2cccc(Cl)c2)ccn1 | CNCTC MY331/88 |  |  | MIC |  | 61.66 µM |
| Cc1cc(CN2CCN(C)CC2)c(C)n1Cc1ccccc1 | 103471 |  |  | MIC |  | 8 µg/mL |
| COc1cc(O)c2c(=O)c3cccc(OC)c3oc2c1 |  |  |  | MIC |  | >200 µg/mL |
| O=C(Nc1cccc([N+](=O)[O-])c1)c1cnccn1 | ATCC 27294 |  | resazurin | MIC |  | >100 µg/mL |
| N/C(=N/N=C/c1ccccc1Cl)c1ccccn1 | 1454 (THC-resistant) |  |  | MIC |  | 16 µg/mL |
| CC1COc2c(N3CCN(C)CC3)c(F)cc3c(=O)c(C(=O)O)cn1c23 | H37Rv |  |  | MIC |  | 1 µg/mL |
| O=C1C2=C(Nc3cc([N+](=O)[O-])ccc3N2)OC1c1ccccn1 | H37Rv |  | BACTEC | MIC bound |  | >12.5 µg/mL |
| Cc1ccc(/C=N/N=C(/N)c2ccccn2)c(C)c1 | 1814 (THC-resistant) |  |  | MIC |  | 16 µg/mL |
| NC(=S)c1cc(SCc2cccc(F)c2)ccn1 | CNCTC MY331/88 |  |  | MIC |  | 7.94 µM |
| CCOC(=O)c1c(-c2ccc(OC)cc2)oc2ccc(OCCCCCN3C(=O)/C(=N/OC)c4ccccc43)cc12 | H37Rv |  |  | MIC |  | <0.049 µg/mL |
| O=c1c2c(O)cccc2oc2cc(O)cc(O)c12 |  |  |  | MIC |  | 10 µg/mL |
| O=C(Nc1ccc(Cl)cc1)c1cnccn1 | ATCC 27294 |  | resazurin | MIC |  | 50 µg/mL |
| N#Cc1cc(SCc2ccc([N+](=O)[O-])cc2[N+](=O)[O-])ccn1 | CNCTC MY331/88 |  |  | MIC |  | 61.66 µM |
| O=C1C[C@@H](c2ccc(O)c(O)c2)Oc2c1c(O)cc(O)c2[C@H]1C(=O)c2c(O)cc(O)cc2O[C@@H]1c1ccc(O)cc1 |  |  |  | MIC |  | >12.5 µg/mL |
| COC1/C=C/OC2(C)Oc3c(C)c(O)c4c(c3C2=O)C(=O)C([N+](=O)[O-])=C(NC(=O)/C(C)=C\C=C\C(C)C(O)C(C)C(O)C(C)C(OC(C)=O)C1C)C4=O | H37Rv |  | resazurin | MIC |  | 6.25 µg/mL |
| CO[C@H]1/C=C/O[C@@]2(C)Oc3c(C)c(O)c4c(O)c(c(/C=N/NS(=O)(=O)c5ccc(C)cc5)c(O)c4c3C2=O)NC(=O)/C(C)=C\C=C\[C@H](C)[C@H](O)[C@@H](C)[C@@H](O)[C@@H](C)[C@H](OC(C)=O)[C@@H]1C | H37Rv |  |  | EC50 |  | 1 µg/mL |
| O=c1c2c(OC3OC(CO)C(O)C(O)C3O)cc(O)cc2oc2c(O)ccc(O)c12 |  |  |  | MIC |  | 200 µg/mL |
| NNC(=O)c1ccncc1 | Bovine |  |  | MIC |  | 0.4 µg/mL |
| N/C(=N/N=C/c1ccc(Cl)cc1)c1ccccn1 | 1454 (THC-resistant) |  |  | MIC |  | 64 µg/mL |
| NC(=S)c1cc(SCc2ccc(Br)cc2)ccn1 | CNCTC MY331/88 |  |  | MIC |  | 30.9 µM |
| N/C(=N/N=C/c1ccccc1Br)c1ccccn1 | H37Rv |  |  | MIC |  | 8 µg/mL |
| Cc1nc([N+](=O)[O-])c2n1CC(CCl)O2 | H37Rv |  |  | MIC |  | >10 µg/mL |
| CO[C@H]1/C=C/O[C@@]2(C)Oc3c(C)c(O)c4c(O)c(c(C=Nc5ccccc5)c(O)c4c3C2=O)NC(=O)/C(C)=C\C=C\[C@H](C)[C@H](O)[C@@H](C)[C@@H](O)[C@@H](C)[C@H](OC(C)=O)[C@@H]1C | H37Rv |  |  | EC50 |  | 5 µg/mL |
| O=C(O)COc1ccc(C2C(Oc3ccc(Cl)cc3Cl)C(=O)N2c2ccc(Cl)c(F)c2)cc1 | H37Rv |  | resazurin | MIC90 |  | 0.78 µg/mL |
| CO[C@H]1/C=C/O[C@@]2(C)Oc3c(C)c(O)c4c(O)c(c(C=NN)c(O)c4c3C2=O)NC(=O)/C(C)=C\C=C\[C@H](C)[C@H](O)[C@@H](C)[C@@H](O)[C@@H](C)[C@H](OC(C)=O)[C@@H]1C | H37Rv |  |  | EC50 |  | 1 µg/mL |
| CC1Cn2cnc([N+](=O)[O-])c2O1 | H37Rv |  |  | MIC |  | >10 µg/mL |
| O=C(O)/C=C/c1c2ccc(=O)c(O)c-2oc2c(O)c(O)ccc12 | H37Rv |  | BACTEC | inhibition | 12.5 µg/mL | -7% |
| O=C(Nc1cccc(Cl)c1)c1cnccn1 | ATCC 27294 |  | resazurin | MIC |  | >100 µg/mL |
| Cc1c2c(Cc3ccccc3)nccc2c(C)c2c1c1ccccc1n2Cc1ccccc1 | H37Rv |  | resazurin | MIC bound |  | >6.25 µg/mL |
| Cc1c(CN2CCOCC2)c(CN2CCOCC2)c(-c2ccc(Cl)cc2)n1Cc1ccccc1 | H37Rv |  |  | EC50 |  | <12.5 µg/mL |
| O=c1cc(-c2ccc(Oc3c(O)cc4oc(-c5ccc(O)cc5)cc(=O)c4c3O)cc2)oc2cc(O)cc(O)c12 |  |  |  | MIC |  | >12.5 µg/mL |
| O=C(O)COc1ccc(C2C(Oc3ccccc3)C(=O)N2c2ccc(Cl)c(F)c2)cc1 | H37Rv |  | resazurin | MIC90 |  | >6.25 µg/mL |
| N/C(=N/N=C/c1cccc(F)c1)c1ccccn1 | 1814 (THC-resistant) |  |  | MIC |  | 125 µg/mL |
| Nc1nc(-c2ccccc2)c(N=Nc2cccc(Cl)c2)s1 | H37Rv |  | BACTEC | MIC bound |  | >6.25 µg/mL |
| CCOC(=O)/C(C#N)=N/Nc1ccc(C(=O)OC)c(S(=O)(=O)NC(=O)Nc2nccc(C)n2)c1 | H37Rv |  |  | MIC |  | >80 µg/mL |
| CC1Cn2cc([N+](=O)[O-])nc2O1 | H37Rv |  |  | MIC |  | 5 µg/mL |
| COc1cc(O)c2c(=O)c3c(O)cccc3oc2c1 |  |  |  | MIC |  | 40 µg/mL |
| CC1OCC2OC(C)OC(C(C3C(=O)CC(C)(C)CC3=O)C3C(=O)CC(C)(C)CC3=O)C2O1 | H37Rv |  | BACTEC | inhibition | 12.5 µg/mL | -4% |
| NC(=S)c1cc(SCc2ccc(Cl)cc2)ccn1 | CNCTC MY331/88 |  |  | MIC |  | 7.94 µM |
| Cc1cccc(NC(=O)c2cnccn2)c1 | ATCC 27294 |  | resazurin | MIC |  | >100 µg/mL |
| O=C1c2cccc3cccc(c23)C(=O)N1c1nccs1 | H37Rv |  | resazurin | inhibition | 6.25 µg/mL | 13% |
| COC(=O)c1ccc(NC(=O)C(Cl)(Cl)Cl)cc1S(=O)(=O)NC(=O)Nc1nccc(OC)n1 | H37Rv |  |  | MIC |  | >80 µg/mL |
| COc1cc(/C=N/N=C(\N)c2ccccn2)cc(OC)c1OC | H37Rv |  |  | MIC |  | 500 µg/mL |
| O=[N+]([O-])c1cc2ncccc2c2ncccc12 | TAC-R |  |  | MIC |  | 12.5 µg/mL |
| CCCCCCn1c(C)ccc1C | 103471 |  |  | MIC |  | >16 µg/mL |
| COc1cc(O)c2c(=O)c3cccc(O)c3oc2c1 |  |  |  | MIC |  | >200 µg/mL |
| N/C(=N/N=C/c1ccccc1)c1ccccn1 | 1814 (THC-resistant) |  |  | MIC |  | 32 µg/mL |
| COc1ccnc(NC(=O)NS(=O)(=O)c2cc(C(=O)NC(C)C)ccc2Br)n1 | H37Rv |  |  | MIC |  | >80 µg/mL |
| Clc1cccc2[nH]c(-c3ccncc3)nc12 | H37Rv |  | BACTEC | MIC bound |  | >6.25 µg/mL |
| CCc1cc(C(N)=S)ccn1 |  |  |  | MIC |  | 62 µM |
| COc1cc(OC2OC(CO)C(O)C(O)C2O)c2c(=O)c3c(O)ccc(O)c3oc2c1 |  |  |  | MIC |  | 200 µg/mL |
| N#CCCN(CCC#N)c1ccc(/C=C(\NC(=O)c2cc([N+](=O)[O-])ccc2Cl)C(=O)NN)cc1 | H37Rv |  | BACTEC | inhibition | 12.5 µg/mL | 22% |
| O=c1cc(-c2ccccc2)oc2ccc(-c3ccccc3-c3cc(=O)c4ccccc4o3)cc12 |  |  |  | MIC |  | >12.5 µg/mL |
| NC(=S)C(=S)N1CCCC1 |  |  |  | MIC |  | 250 µM |
| CC1S[C@H](c2ccc(Cl)cc2)N(c2nc(N3CCN(C)CC3)n[nH]2)C1=O | H37Rv |  | resazurin | MIC |  | 2 µg/mL |
| NC(=S)c1cc(SCc2cccc(Br)c2)ccn1 | CNCTC MY331/88 |  |  | MIC |  | 7.94 µM |
| O=c1cc(-c2ccc(O)c(-c3c(O)cc4oc(-c5ccc(O)cc5)cc(=O)c4c3O)c2)oc2cc(O)cc(O)c12 |  |  |  | EC50 |  | >12.5 µg/mL |
| Cc1ccc(/C=N/N=C(/N)c2ccccn2)cc1 | H37Rv |  |  | MIC |  | 16 µg/mL |
| CCOC(=O)NC(=O)c1cn(CCN2CCN(C(=O)CCCCCCCCCCNc3ncnc4c3ncn4[C@@H]3O[C@H](CO)[C@@H](O)[C@H]3O)CC2)c(=O)[nH]c1=O | H37Rv |  | BACTEC | inhibition | 12.5 µg/mL | 0% |
| CCCCCCn1c(C)cc(CN2CCOCC2)c1C | H37Rv |  |  | MIC |  | <12.5 µg/mL |
| COC(=O)c1ccc(NC(=O)C(Cl)Cl)cc1S(=O)(=O)NC(=O)Nc1nccc(OC)n1 | H37Rv |  |  | MIC |  | 40 µg/mL |
| NC(N)=Nc1ccc(-c2ccc(-c3ccc(N=C(N)N)cc3Cl)o2)c(Cl)c1 |  |  |  | MIC |  | 12.5 µg/mL |
| CSC(=S)N(C)/N=C/c1ccccn1 | H37Rv |  | BACTEC | MIC |  | 64 µg/mL |
| CN1CCN(c2n[nH]c(N3C(=O)CS[C@@H]3c3ccccc3)n2)CC1 | H37Rv |  | broth dilution | MIC |  | 8 µg/mL |
| CCOC(=O)[C@H]1O[C@@H]([C@@]2(C)O[C@]3(O[C@]4(C=C[C@H]3O)O[C@H]([C@@H](C)C(=O)[C@@H](C)[C@@H](O)[C@H](C)C[C@H](C)c3c(Cl)cc(C)c(O)c3C(=O)O)[C@@H](C)C[C@H]4C)[C@H](C)[C@H]2OC)C[C@H]1O | H37Rv |  | BACTEC | inhibition | 12.5 µg/mL | 99% |
| O=C1C[C@@H](c2ccc(O)cc2)Oc2cc(O)c(-c3c(O)cc4c(c3O)C(=O)C[C@@H](c3ccc(O)cc3)O4)c(O)c21 |  |  |  | EC50 |  | >12.5 µg/mL |
| Cc1ccccc1OC1C(=O)N(c2ccc(Cl)c(F)c2)C1c1ccc(OCC(=O)O)cc1 | H37Rv |  | resazurin | inhibition | 6.25 µg/mL | 72% |
| COCCOCCOCCOCCOC(=O)CCn1cc(F)c(=O)[nH]c1=O | H37Rv |  | resazurin | MIC bound |  | >6.25 µg/mL |
| O=C1CS[C@H](c2ccccc2)N1c1nc(N2CCOCC2)n[nH]1 | H37Rv |  | resazurin | MIC |  | 16 µg/mL |
| CC1=CC(=Nc2ccc(N(C)C)cc2)C=C(C)C1=O | H37Rv | VERO |  | MIC |  | 3.13 µg/mL |
| CN1CCN(c2n[nH]c(N3C(=O)CS[C@@H]3c3ccc4c(c3)OCO4)n2)CC1 | H37Rv |  | resazurin | MIC |  | <1 µg/mL |
| CC12CC3(Nc4ccccc4C3(C)O)OC1(C)c1ccccc1N2 | H37Rv |  | BACTEC | inhibition | 12.5 µg/mL | 10% |
| NC(=S)c1cc(SCc2ccc([N+](=O)[O-])cc2)ccn1 | CNCTC MY331/88 |  |  | MIC |  | 3.98 µM |
| NCC(=O)N/N=C/c1ccc([N+](=O)[O-])o1 | EMB-R |  |  | MIC |  | 12.5 µg/mL |
| O=C(O)COc1ccc(C2C(c3ccccc3)C(=O)N2c2ccc(Cl)c(F)c2)cc1 | H37Rv |  | resazurin | inhibition | 6.25 µg/mL | 77% |

Inhibition is in % at the dose shown (toxicity tests: loss of growth or viability). An empty or dashed field is not shown. ECn is the concentration giving n% inhibition of infection, replication or growth. MIC bound: limit read from a one-dose screen. Neighbouring rows are from separate reports.